Measured values taken from patent US12012411B2, “Viral replication inhibitors” (Katholieke Universiteit Leuven, priority 2011, dated 2024).

System: DENV-2 NGC
Assay: Antiviral activity against DENV-2 NGC in Vero-B cells (viral RNA load by RT-qPCR)
Assay type: cell-based, Dengue virus
Conditions: DENV-2 in Vero-B cells (Table 3); ratio CC50 / EC50

SMILES | SI
COc1cc(NC(C(=O)c2c[nH]c3cc(F)ccc23)c2ccccc2)cc(OCCO)c1 (stereo not drawn) [CPD-316] | 1180
CN(C)C(=O)c1cccc(NC(C(=O)c2c[nH]c3ccccc23)c2ccccc2)c1 (stereo not drawn) [CPD-051] | >51
COc1cccc(NC(C(=O)c2c[nH]c3ccccc23)c2cn3cccc(C)c3n2)c1 (stereo not drawn) [CPD-088] | >48
COc1cc(CN(C)C)cc(NC(C(=O)c2c[nH]c3ccccc23)c2ccccc2)c1 (stereo not drawn) [CPD-263] | 6
COc1cccc(NC(C(=O)c2c[nH]c3ncccc23)c2ccccc2)c1 (stereo not drawn) [CPD-194] | 65
CCS(=O)(=O)n1cc(C(=O)C(Nc2cccc(OC)c2)c2ccccc2)c2ccccc21 (stereo not drawn) [CPD-211] | >39
COc1cccc(NC(C(=O)c2cn(CCCO)c3ccccc23)c2ccccc2)c1 (stereo not drawn) [CPD-128] | 113
COc1cc(NC(C(=O)c2c[nH]c3ccccc23)c2ccccc2)ccn1 (stereo not drawn) [CPD-045] | >2183
COc1cc(NC(C(=O)c2c[nH]c3ccccc23)c2ccc(OC)nc2)cc(OC)c1 (stereo not drawn) [CPD-335] | 909
O=C(O)c1cccc(NC(C(=O)c2c[nH]c3ccccc23)c2ccccc2)c1 (stereo not drawn) [CPD-071] | 2
COc1cc(CO)cc(NC(C(=O)c2c[nH]c3cc(F)ccc23)c2cccnc2)c1 (stereo not drawn) [CPD-344] | 1054
COc1cc(NC(C(=O)c2c[nH]c3ccccc23)c2ccc3[nH]ccc3c2)ccn1 (stereo not drawn) [CPD-097] | 5
COc1cccc(NC(C(=O)c2c[nH]c3ccccc23)c2ccc(COCN(C)C)cc2)c1 (stereo not drawn) [CPD-112] | 4
COc1cncc(NC(C(=O)c2c[nH]c3ccccc23)c2ccccc2)c1 (stereo not drawn) [CPD-067] | 546
COc1cc(NC(C(=O)c2c[nH]c3c(Cl)cccc23)c2ccccc2)ccn1 (stereo not drawn) [CPD-101] | 2
COc1cccc(NC(C(=O)c2c[nH]c3ccccc23)c2ccc(O)nc2)c1 (stereo not drawn) [CPD-063] | >9
COc1ccc(OC)c(NC(C(=O)c2c[nH]c3ccccc23)c2ccccc2)c1 (stereo not drawn) [CPD-039] | 6
COc1cccc(NC(C(=O)c2nn(C)c3cc(OC)ccc23)c2ccccc2)c1 (stereo not drawn) [CPD-266] | >2222
COc1cc(NC(C(=O)c2c[nH]c3c(C)cccc23)c2ccc(F)cc2)cc(OC)c1 (stereo not drawn) [CPD-341] | 6121
O=C(c1c[nH]c2ccccc12)C(Nc1ccc2nccnc2c1)c1ccccc1 (stereo not drawn) [CPD-050] | 36
COc1cc(NC(C(=O)c2c[nH]c3ccccc23)c2ccccc2)cc(OC)n1 (stereo not drawn) [CPD-319] | 172

SMILES | SI
COc1cccc(NC(C(=O)c2nn(C)c3c2CN(C)CC3)c2ccccc2)c1 (stereo not drawn) [CPD-223] | >2
O=C(c1c[nH]c2ccccc12)C(Nc1cccc(-n2cncn2)c1)c1ccccc1 (stereo not drawn) [CPD-058] | 22
O=C(c1c[nH]c2ccccc12)C(Nc1cccc(-c2cnco2)c1)c1ccccc1 (stereo not drawn) [CPD-059] | 13
COc1cccc(NC(C(=O)c2c[nH]c3cc(F)ccc23)c2cccnc2)c1 (stereo not drawn) [CPD-152] | 814
COc1cc(NC(C(=O)c2c[nH]c3cccc(CO)c23)c2ccccc2)cc(OC)c1 (stereo not drawn) [CPD-352] | 247
O=C(c1c[nH]c2ccccc12)C(Nc1cccc(F)c1)c1ccccc1 (stereo not drawn) [CPD-008] | 5
COc1cccc(NC(C(=O)c2c[nH]c3ccccc23)c2ccc(C#N)nc2)c1 (stereo not drawn) [CPD-314] | 240
COc1cncc(NC(C(=O)c2nn(C)c3ccccc23)c2ccccc2)n1 (stereo not drawn) [CPD-276] | 9
COc1cc(NC(C(=O)c2c[nH]c3c(CCN(C)C)cccc23)c2ccccc2)cc(OC)c1 (stereo not drawn) [CPD-365] | 6
COc1cc(NC(C(=O)c2csc3ccccc23)c2cn3ccccc3n2)ccn1 (stereo not drawn) [CPD-199] | >4
COc1cccc(NC(C(=O)c2c[nH]c3ccccc23)c2ccc(C(F)(F)F)nc2)c1 (stereo not drawn) [CPD-315] | 265
COc1cc(NC(C(=O)c2c[nH]c3ccccc23)c2ccccc2)c(F)c(OC)c1 (stereo not drawn) [CPD-345] | 493
COc1cccc(NC(C(=O)c2c[nH]c3ccccc23)c2cn3ncccc3n2)c1 (stereo not drawn) [CPD-238] | >3548
CCCN1CCC(NC(C(=O)c2c[nH]c3ccccc23)c2ccccc2)CC1 (stereo not drawn) [CPD-184] | 3
COc1cccc(NC(C(=O)c2c[nH]c3c(Cl)cccc23)c2ccccc2)c1 (stereo not drawn) [CPD-084] | >4185
COc1cc(NC(C(=O)c2c[nH]c3ccccc23)c2ccc(F)cc2)ccn1 (stereo not drawn) [CPD-090] | 5
CC(=O)Nc1cccc(NC(C(=O)c2c[nH]c3ccccc23)c2ccccc2)c1 (stereo not drawn) [CPD-174] | 6
CNS(=O)(=O)c1cccc(NC(C(=O)c2c[nH]c3ccccc23)c2ccccc2)c1 (stereo not drawn) [CPD-052] | 14
CC(NC(C(=O)c1c[nH]c2ccccc12)c1ccccc1)c1ccco1 (stereo not drawn) [CPD-180] | >2
COc1cccc(NC(C(=O)c2c[nH]c3ccccc23)c2ccc(-c3cncnc3)cc2)c1 (stereo not drawn) [CPD-048] | >54
COc1cc(NC(C(=O)c2c[nH]c3ccccc23)c2ccccc2)ccc1Cl (stereo not drawn) [CPD-004] | 57

SMILES | SI
COc1cccc(NC(C(=O)c2c[nH]c3ccccc23)c2cnccn2)c1 (stereo not drawn) [CPD-274] | 257
COc1cccc(NC(C(=O)c2c[nH]c3ccccc23)c2cncc(OC)c2)c1 (stereo not drawn) [CPD-312] | 15
O=C(c1c[nH]c2ccccc12)C(Nc1cc(F)cc(F)c1)c1ccccc1 (stereo not drawn) [CPD-011] | 14
COc1cccc(NC(C(=O)c2cn(CC(=O)O)c3ccccc23)c2ccccc2)c1 (stereo not drawn) [CPD-106] | >13
COc1cccc(NC(C(=O)c2c[nH]c3ccccc23)c2ccc3c(c2)n(C)c(=O)n3C)c1 (stereo not drawn) [CPD-060] | >10
COc1cc(NC(C(=O)c2nn(C)c3ccccc23)c2cccnc2)cc(OC)c1 (stereo not drawn) [CPD-279] | >682
COc1cc(NC(C(=O)c2cn(C)c3ccccc23)c2ccccc2)cc(OCCO)c1 (stereo not drawn) [CPD-305] | >1263
COc1cccc(NC(C(=O)c2c[nH]c3cc(OC)ccc23)c2ccccc2)c1 (stereo not drawn) [CPD-077] | 313
COc1cc(NC(C(=O)c2c[nH]c3ccccc23)c2ccccc2)cc(OC)c1 (single isomer, unassigned) [CPD-327] | 33
COc1cc(NC(C(=O)c2c[nH]c3ccccc23)c2ccccc2)cc(C(F)(F)F)c1 (stereo not drawn) [CPD-014] | 354
COc1cc(NC(C(=O)c2c[nH]c3cccc(CCCO)c23)c2ccccc2)cc(OC)c1 (stereo not drawn) [CPD-357] | 40
COc1cncc(NC(C(=O)c2c[nH]c3ccccc23)c2ccccc2)c1 (single isomer, unassigned) [CPD-299] | 3136
COc1cncc(NC(C(=O)c2c[nH]c3ccccc23)c2cccnc2)n1 (stereo not drawn) [CPD-280] | >179
COc1cccc(NC(C(=O)c2c[nH]c3ccccc23)c2cn3ccc(C)cc3n2)c1 (stereo not drawn) [CPD-096] | >42
COc1cccc(NC(C(=O)c2c[nH]c3ccccc23)c2ccc(C)nc2)c1 (stereo not drawn) [CPD-226] | 1005
COc1cccc(NC(C(=O)c2cn(S(C)(=O)=O)c3ccccc23)c2ccccc2)c1 (stereo not drawn) [CPD-111] | >263
COc1cccc(NC(C(=O)c2c[nH]c3c(Cl)cccc23)c2ccc(C#N)cc2)c1 (stereo not drawn) [CPD-120] | 674
CCOc1cccc(NC(C(=O)c2c[nH]c3ccccc23)c2ccccc2)c1 (stereo not drawn) [CPD-003] | 114
COc1cccc(NC(C(=O)c2c[nH]c3cc(C#N)ccc23)c2ccccc2)c1 (stereo not drawn) [CPD-094] | 77
COc1cc(CO)cc(NC(C(=O)c2nn(C)c3ccccc23)c2ccccc2)c1 (stereo not drawn) [CPD-278] | >455
COc1cc(NC(C(=O)c2c[nH]c3ncc(F)cc23)c2ccccc2)cc(OC)c1 (stereo not drawn) [CPD-234] | 319
